Anti-infective test results gathered from many reports (values: NIAID ChemDB through PubChem).

All rows: toxicity to cultured cells; cells: Vero cells; read by: MTT; measure: CC50

Lines come from different laboratories, so protocols vary.

{"SMILES": "CC(C)=CCc1c(O)cc2c(c1O)C(=O)CC(c1ccccc1)O2", "value": "21.87 µg/mL"}
{"SMILES": "C[C@@H]1CC[C@]2(C(=O)O)CC[C@]3(C)C(CCC4[C@@]5(C)CC[C@H](O)C(C)(C)C5CC[C@]43C)C2[C@H]1C", "value": "8.1 µg/mL"}
{"SMILES": "Cc1ccc(C)n1-c1ccc(C(=O)NN2C(=O)c3ccccc3C2=O)cc1", "value": "252 µM"}
{"SMILES": "CCOC(=O)c1ccc(N2CCN(CCn3c(-c4ccc(C)cc4)nc4cc(C(=O)OCC)ccc43)CC2)c(N)c1", "value": ">62.5 µg/mL"}
{"SMILES": "O=C(CNc1cccc([N+](=O)[O-])c1)Sc1nnc(-c2ccncc2)o1", "value": ">62.5 µg/mL"}
{"SMILES": "CC[C@H](/C=C/C(C)[C@H]1CCC2C3CC=C4C[C@@H](O)CC[C@]4(C)C3CC[C@@]21C)C(C)C", "value": "54.97 µg/mL"}
{"SMILES": "Clc1ccc(-c2csc(-n3cccc3)n2)cc1", "value": "242 µM"}
{"SMILES": "CCOC(=O)c1ccc(N2CCN(CCn3c(-c4ccc5c(c4)OCO5)nc4cc(C(=O)OCC)ccc43)CC2)c(N)c1", "value": ">62.5 µg/mL"}
{"SMILES": "O=C(NN1C(=O)c2ccccc2C1=O)c1ccc(-n2cccc2)cc1", "value": "251 µM"}
{"SMILES": "CCCCCCCCCC/C=C\\C/C=C\\CCC[C@@H](O)C(=O)N[C@@H](COC1O[C@H](CO)[C@@H](O)[C@H](O)[C@H]1O)[C@H](O)[C@H](O)C/C=C\\CC/C=C/CCCCCCCCCCCCC", "value": ">100 µg/mL"}
{"SMILES": "Cc1cccc(NCC(=O)Sc2nnc(-c3ccncc3)o2)c1", "value": ">62.5 µg/mL"}
{"SMILES": "CC(=O)Nc1ccc(/C=N/NC(N)=S)cc1F", "value": ">62.5 µg/mL"}
{"SMILES": "O=C(CNc1ccc(Cl)cc1)Sc1nnc(-c2ccncc2)o1", "value": ">62.5 µg/mL"}
{"SMILES": "CC(C)=CCC[C@H](C)C1CC[C@@H](C)c2c(O)cc(C)c([N+](=O)[O-])c21", "value": "251 µM"}
{"SMILES": "O=C(CNc1ccccc1Cl)Sc1nnc(-c2ccncc2)o1", "value": ">62.5 µg/mL"}
{"SMILES": "Cc1ccc(C)n1-c1nc(-c2ccc(F)cc2)cs1", "value": "266 µM"}
{"SMILES": "Cc1ccc(NCC(=O)Sc2nnc(-c3ccncc3)o2)cc1", "value": ">62.5 µg/mL"}
{"SMILES": "O=[N+]([O-])c1ccc(-c2csc(-n3cccc3)n2)cc1", "value": "243 µM"}
{"SMILES": "O=C(CNc1ccc([N+](=O)[O-])cc1)Sc1nnc(-c2ccncc2)o1", "value": ">62.5 µg/mL"}
{"SMILES": "CCOC(=O)c1ccc(N2CCN(CCn3c(-c4ccc(OC(F)(F)F)cc4)nc4cc(C(=O)OCC)ccc43)CC2)c(N)c1", "value": ">62.5 µg/mL"}

The first 2 rows once more:

SMILES,value
CC(C)=CCc1c(O)cc2c(c1O)C(=O)CC(c1ccccc1)O2,21.87 µg/mL
C[C@@H]1CC[C@]2(C(=O)O)CC[C@]3(C)C(CCC4[C@@]5(C)CC[C@H](O)C(C)(C)C5CC[C@]43C)C2[C@H]1C,8.1 µg/mL

CCn: concentration that lowers growth or viability of the cells by n%.